Test results reported in PMC4851402, “Validation of N-myristoyltransferase as Potential Chemotherapeutic Target in Mammal-Dwelling Stages of Trypanosoma cruzi” (PLoS Neglected Tropical Diseases, 2016).
Several values for one entry are separate records, joined by “and”; a condition that tells them apart may be missing. Equal values may be shown once.

Tested on: T. cruzi intracellular amastigote proliferation
Assay: In vitro T. cruzi intracellular proliferation assay in infected U2OS cells, high-content imaging
Type: cell-based, Trypanosoma cruzi (Y strain)
Settings: selectivity index, U2OS cells vs T. cruzi proliferation assay
Description: DMSO control wells contained 30 μL 6% DMSO. Human […] (U2OS cells) were diluted in DMEM, 10% heat inactivated-fetal bovine serum (HI-FBS) to give a cell density of 2 x 10^5 cells/mL. T. cruzi trypomastigotes were resuspended in DMEM, 10% HI-FBS to a final density of 1.2 x 10^7. Cells and parasites were mixed a ratio of 4 volumes of cells plus 1 volume of parasites. 150 μL of the mixture were dispensed per well. Plates were incubated for 48 h. After the incubation period, media was removed from the wells and 100 μL 4% paraformaldehyde (PFA) were added. After 15 min of incubation at room temperature, PFA was removed and cells and parasites were stained with Draq5 (BioStatus, Leicestershire, UK) at a concentration of 5 μM diluted in PBS. The plates were then read in a bioimager system as described below. Three independent experiments were performed in triplicate wells.
Filter sets appropriate for the excitation and emission spectra of Draq5 were utilized. Images from four fields (2 x 2 montage) were acquired per well with a 20x objective. To perform the host cell segmentation and counting of parasites, the BD AttoVision v1.6.2 Sub Object analysis was used. Draq5 creates a background, staining the host cell and parasite nucleus, but defining the cytoplasm as well, determining this way the amount of parasites within each mammalian cell. The host cell nucleus was excluded by size difference. Raw data was imported into the BD Image Data Explorer (BD Biosciences) to determine the percentage of infected cells containing at least 1, at least 3 or at least 5 intracellular parasites.
EC50 were determined from three independent experiments.

| Structure (SMILES) | T. cruzi proliferation assay S.I. |
| --- | --- |
| Cc1c(NS(=O)(=O)c2c(Cl)cc(-c3ccnc(N4CCNCC4)c3)cc2Cl)c(CC(C)C)nn1C [Compound 1] | 71 and 71.1 |
| Cc1nn(C)c(C)c1N(C(F)F)S(=O)(=O)c1c(Cl)cc(CCCCC2CCN(C)CC2)cc1Cl [Compound 8] | 33 and 33.1 |
| Cc1c(NS(=O)(=O)c2ccc(CCCC3CCN(C)CC3)cc2)c(CC(C)C)nn1C [Compound 4] | > 93 and > 92.6 |
| Cc1nn(C)c(Cl)c1NS(=O)(=O)c1c(Cl)cc(-c2ccnc(N3CCNCC3)c2)cc1Cl [Compound 2] | > 43.9 |
| Cc1nn(C)c(C)c1N(C(F)F)S(=O)(=O)c1c(Cl)cc(CCCC2CCN(C)CC2)cc1Cl [Compound 5] | 44 and 43.8 |
| Cc1nn(C)c(C)c1N(CC(F)(F)F)S(=O)(=O)c1c(Cl)cc(CCCC2CCN(C)CC2)cc1Cl [Compound 7] | 13.8 |
| Cc1c(NS(=O)(=O)c2ccc(-c3cccc(CN(C)C)c3)cc2)c(CC(C)C)nn1C [Compound 6] | > 51 and > 50.5 |
